The entries are a selection whose mix differs from that of the whole data set.
Tests used:
Format in all cases: functional
[1] = biological target: Solute carrier family 2, facilitated glucose transporter member 1 (Homo sapiens) (UniProt P11166); assay: ST_JUDE_LEISH: Cytotoxicity at 2uM final concentration against transgenic Leishmania Mexicana promastigotes LmGLUT1 that are glucose transport deficient and complemented with the human glucose transporter GLUT1. Activity is measured by DNA content using SYBR green in vitro
[2] = biological target: Hexose transporter 1 (Plasmodium falciparum) (UniProt O97467); assay: ST_JUDE_LEISH: Cytotoxicity at 2uM final concentration against transgenic Leishmania Mexicana promastigotes LmPfHT that are glucose transport deficient and complemented with the Plasmodium falciparum hexose transporter. Activity is measured by DNA content using SYBR green in vitro
[3] = biological target: Glucose transporter (Leishmania mexicana) (UniProt O61059); assay: ST_JUDE_LEISH: Cytotoxicity at 2uM final concentration against transgenic Leishmania Mexicana promastigotes LmGT2 that are glucose transport deficient and complemented with the L. Mexicana glucose transporter 2. Activity is measured by DNA content using SYBR green in vitro

By UniProt entry, the sequences of proteins in these tests, tags left out. Residues count along the entry.
UniProt P11166, whole entry: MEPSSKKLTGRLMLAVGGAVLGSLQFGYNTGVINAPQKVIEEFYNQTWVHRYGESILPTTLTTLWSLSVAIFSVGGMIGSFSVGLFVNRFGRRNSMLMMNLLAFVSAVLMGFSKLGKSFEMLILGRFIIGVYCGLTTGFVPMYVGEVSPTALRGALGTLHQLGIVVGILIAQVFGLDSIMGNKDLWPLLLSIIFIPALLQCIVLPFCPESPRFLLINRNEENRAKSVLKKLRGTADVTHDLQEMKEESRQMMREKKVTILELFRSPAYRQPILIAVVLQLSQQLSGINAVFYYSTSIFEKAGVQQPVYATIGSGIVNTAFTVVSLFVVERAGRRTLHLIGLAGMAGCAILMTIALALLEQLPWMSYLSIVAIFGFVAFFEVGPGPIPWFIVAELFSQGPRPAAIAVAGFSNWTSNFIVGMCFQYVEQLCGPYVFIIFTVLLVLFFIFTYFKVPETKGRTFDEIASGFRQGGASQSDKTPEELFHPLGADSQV
UniProt O97467, 1-504: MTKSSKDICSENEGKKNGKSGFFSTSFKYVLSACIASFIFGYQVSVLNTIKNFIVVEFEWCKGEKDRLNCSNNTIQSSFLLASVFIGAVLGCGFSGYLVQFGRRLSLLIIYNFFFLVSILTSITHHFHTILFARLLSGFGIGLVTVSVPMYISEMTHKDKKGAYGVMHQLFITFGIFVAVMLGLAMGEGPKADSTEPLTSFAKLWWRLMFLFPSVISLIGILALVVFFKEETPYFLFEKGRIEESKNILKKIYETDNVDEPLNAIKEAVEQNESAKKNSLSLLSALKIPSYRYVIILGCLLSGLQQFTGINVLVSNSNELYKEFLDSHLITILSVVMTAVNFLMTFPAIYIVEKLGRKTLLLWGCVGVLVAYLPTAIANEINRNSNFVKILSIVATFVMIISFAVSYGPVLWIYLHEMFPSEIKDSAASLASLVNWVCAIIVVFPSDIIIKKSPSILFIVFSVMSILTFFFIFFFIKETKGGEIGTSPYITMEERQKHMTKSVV
UniProt O61059, 1-567: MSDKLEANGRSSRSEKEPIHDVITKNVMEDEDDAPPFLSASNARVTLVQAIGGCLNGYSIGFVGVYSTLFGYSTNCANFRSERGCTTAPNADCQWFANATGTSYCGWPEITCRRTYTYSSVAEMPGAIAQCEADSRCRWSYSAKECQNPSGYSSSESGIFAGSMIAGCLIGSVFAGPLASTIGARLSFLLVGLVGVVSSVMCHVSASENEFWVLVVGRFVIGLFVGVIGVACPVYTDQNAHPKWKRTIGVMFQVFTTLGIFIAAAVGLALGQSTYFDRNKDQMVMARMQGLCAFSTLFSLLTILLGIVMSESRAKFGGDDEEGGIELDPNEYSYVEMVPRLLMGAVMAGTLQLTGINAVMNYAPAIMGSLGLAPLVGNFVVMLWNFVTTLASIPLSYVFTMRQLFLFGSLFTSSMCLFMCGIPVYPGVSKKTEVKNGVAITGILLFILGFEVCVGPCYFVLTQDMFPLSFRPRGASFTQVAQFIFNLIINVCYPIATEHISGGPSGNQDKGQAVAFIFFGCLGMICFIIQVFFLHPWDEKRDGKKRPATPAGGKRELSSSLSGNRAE

SMILES | inhibition [1] [%] | inhibition [2] [%] | inhibition [3] [%]
CCN1CCCC(OC(=O)C(O)(c2ccc3c(c2)OCO3)c2ccc3c(c2)OCO3)C1 (stereo unspecified) | -0.66 | 0.99 | 1.94
CCN1CCCC1COC(=O)C(O)(c1ccc2c(c1)OCO2)c1ccc2c(c1)OCO2 (stereo unspecified) | 8.96 | 6.38 | 6.25
